Results of unrelated studies side by side (data: NIAID ChemDB).

Shared fields: growth or infection tests; agent: HIV-1; read-out: EC50

Blank or dashed fields: not listed here.

structure,strain or isolate,mutations,method,value
O=C1Nc2ccc(Cl)cc2C(C#Cc2ccncc2)(C(F)(F)F)O1,-,-,-,<0.1021 µM
COc1cc(N)cc2[nH]c(C(C)=O)cc12,-,-,p24,1.03 µg/mL
Cc1nc2ccccc2c2c1C(=O)NC2=O,-,-,luminescence,100 µM
Nc1ccc(CO[C@H]2C(=O)Nc3ccc(Cl)cc3[C@@]2(C#CC2CC2)C(F)(F)F)cc1,-,RT-L100I,-,<0.049 µM
COc1ccc(/C=C2/N=C(c3ccccc3)N(c3nc(C)cc(Cl)n3)C2=O)cc1,-,-,RT activity,33.41 µg/mL
Cc1cc(C)cc(C[C@@H]2[C@H](O)[C@@H](O)[C@@H](Cc3ccccc3)N(Cc3ccc4[nH]nc(N)c4c3)C(=O)N2Cc2ccccc2)c1,RF,-,-,<0.05 µM
CCCc1cc(=O)oc2c3c(c4c(c12)OC(C)(C)CC4)O[C@H](C)[C@@H](C)C3=O,-,RT-P236L,cytopathic effect / XTT,6.76 µM
CCCCCCCCCCCCCCCC(=O)NC1C(COP(=O)(O)OC2CC(COP(=O)(O)OC3CC(CO)OC3n3cnc4c(N)ncnc43)OC2n2cnc3c(N)ncnc32)OC(n2cnc3c(N)ncnc32)C1O,-,-,syncytia,<100 µM
COc1cc([C@H](O)[C@H](CO)Oc2c(OC)cc(C(=O)CCO)cc2OC)ccc1O,-,-,cytopathic effect,2.64 µg/mL
COC(=O)c1cc2c(OC)c(N)ccc2[nH]1,-,-,p24,1.25 µg/mL
COc1ccc(/C=C2/N=C(c3ccccc3)N(c3nc(C)cc(=O)[nH]3)C2=O)cc1,-,-,RT activity,56.24 µg/mL
Nc1ccn([C@H]2CC[C@@H](CO)O2)c(=O)n1,NL4-3,E151K,β-galactosidase,0.277 µM
CN1N=C(N)c2cn([C@@H]3O[C@H](COP(=O)(O)O)[C@@H](O)[C@H]3O)c3ncnc1c23,RF,-,XTT,0.01 µg/mL
CC1=N/C(=C/c2ccc(Cl)cc2Cl)C(=O)N1c1nc(C)cc(Cl)n1,-,-,RT activity,60.77 µg/mL
CCCCCCCCCCCCCC[C@@]1(O)C[N+](C)(C)C[C@@H](CC(=O)[O-])O1,RF,-,virus yield,~32 µg/mL
CN1C(c2cccc(C(F)(F)F)c2)c2ccccc2S1(=O)=O,-,-,p24 / RT activity,0.653 µM
CCOC1(C(F)(F)F)OC(=O)Nc2ccc(Cl)cc21,-,-,-,<0.01826 µM
CCCCCCCCCCCCC[C@@]1(O)C[N+](C)(C)C[C@@H](CC(=O)[O-])O1,RF,-,virus yield,~32 µg/mL
COc1cc(N)cc2nc(N)cc(OC)c12,-,-,p24,0.13 µg/mL
O=C1Nc2ccc(F)c(F)c2C(C#Cc2ccoc2)(C(F)(F)F)O1,-,-,-,<0.00321 µM
O=c1[nH]c(SCc2cn[nH]n2)nc(-c2ccc(I)cc2)c1Cl,ADA5,-,-,0.29 µg/mL
CN1C(c2ccc(N)cc2)c2ccccc2S1(=O)=O,-,-,p24 / RT activity,65 µM
O=C1CC(C#CC2CC2)(C(F)(F)F)c2cc(Cl)ccc2N1,-,RT-L100I,-,<0.992 µM
CN1C(C)(c2cccc(O)c2)c2ccccc2S1(=O)=O,-,-,p24 / RT activity,30.7 µM
CC1=N/C(=C/c2ccco2)C(=O)N1c1nc(C)cc(Cl)n1,-,-,RT activity,86.24 µg/mL
O=C1Nc2ccc(F)cc2C(C#Cc2ccsc2)(C(F)(F)F)O1,-,-,-,<0.00255 µM
COc1cc(/C=C2/N=C(c3ccccc3)N(c3nc(C)cc(=O)[nH]3)C2=O)ccc1O,-,-,RT activity,54.54 µg/mL
CCCCCCCCCC[C@@]1(O)C[N+](C)(C)C[C@@H](CC(=O)[O-])O1,RF,-,virus yield,~320 µg/mL
COc1cc(/C=C2/N=C(c3ccccc3)N(c3nc(C)cc(Cl)n3)C2=O)cc(OC)c1OC,-,-,RT activity,30.96 µg/mL
O=C1Nc2ccc(Cl)cc2C(C#Cc2cccnc2)(C(F)(F)F)O1,-,-,-,<0.00367 µM
CCOP(=O)(CO[C@]1(c2ccccc2)C=C[C@H](n2cnc3c(N)ncnc32)C1)OCC,-,-,-,>100 µM
O=C1Nc2ccc(F)c(F)c2C(C#Cc2ccsc2)(C(F)(F)F)O1,-,-,-,<0.00234 µM
O=C1Nc2ccc(Cl)cc2[C@@](C#CC2CC2)(C(F)(F)F)[C@H]1OCc1ccncc1,-,RT-L100I K103N,-,<4.83 µM
C=C(C)[C@@H]1CC[C@]2(C(=O)NCCC(C)(C)C)CC[C@]3(C)[C@H](CC[C@@H]4[C@@]5(C)CC[C@H](OC(=O)CC(C)(C)C(=O)O)C(C)(C)[C@@H]5CC[C@]43C)[C@@H]12,NL4-3,-,absorbance,0.0368 µM
C=C1[C@H](CO)OC[C@@H]1n1cnc2c(=O)[nH]c(N)nc21,-,-,-,>100 µM
Nc1ncnc2c1ncn2[C@@H]1C[C@@](OCP(=O)(O)O)(c2ccccc2)[C@@H](O)[C@H]1O,-,-,-,80 µM
C/C=C1/N=C(c2ccccc2)N(c2nc(C)cc(Cl)n2)C1=O,-,-,RT activity,43.22 µg/mL
CN1C(c2cccc(Br)c2)c2ccccc2S1(=O)=O,-,-,p24 / RT activity,0.781 µM
C/C=C1/N=C(C)N(c2nc(C)cc(=O)[nH]2)C1=O,-,-,RT activity,53.6 µg/mL
O=c1[nH]c(SCc2cn[nH]n2)nc(-c2ccc(F)cc2)c1Cl,IIIB,-,-,0.69 µg/mL
Cc1ccc(C[C@@H](C)[C@@H](C)Cc2ccc(C)c(C)c2)cc1C,-,-,luminescence,26 µM
C=C1[C@H](CO)OC[C@@H]1n1cnc2c(=O)[nH]cnc21,-,-,-,>100 µM
CCc1c(C(=O)c2cc(C)cc(C)c2)n(CC2CC=CC2)c(=O)[nH]c1=O,IIIB,-,-,0.0017 µM
CC(C)N1C(c2ccccc2)c2ccccc2S1(=O)=O,-,-,p24 / RT activity,3.23 µM
COC(=O)c1cc2c(OC)cccc2[nH]1,-,-,p24,4.12 µg/mL
C/C=C/COC1(C(F)(F)F)OC(=O)Nc2ccc(F)cc21,-,RT-K103N,-,<1.148 µM
CCCCCCCCCCCCCCCC(=O)NC1C(COP(=O)(O)OC2C(O)C(COP(=O)(O)OC3C(O)C(CO)OC3n3cnc4c(N)ncnc43)OC2n2cnc3c(N)ncnc32)OC(n2cnc3c(N)ncnc32)C1O,-,-,syncytia,<100 µM
COc1cc(N)cc2[nH]c(CC(=O)O)cc12,-,-,p24,0.43 µg/mL
O=C1NC(=O)c2cc([N+](=O)[O-])c(SCc3ccc(Cl)cc3)cc21,-,-,luminescence,35 µM
COc1ccc(N(CC(=O)NCCCc2ccccc2)S(=O)(=O)c2ccc(Cl)c([N+](=O)[O-])c2)cc1,IIIB,Q148R,-,42 µM

For reference, 7 entries again:

{"structure": "C=C1[C@H](CO)OC[C@@H]1n1cnc2c(=O)[nH]cnc21", "value": ">100 µM"}
{"structure": "COc1ccc(N(CC(=O)NCCCc2ccccc2)S(=O)(=O)c2ccc(Cl)c([N+](=O)[O-])c2)cc1", "strain or isolate": "IIIB", "mutations": "Q148R", "value": "42 µM"}
{"structure": "O=C1Nc2ccc(F)c(F)c2C(C#Cc2ccsc2)(C(F)(F)F)O1", "value": "<0.00234 µM"}
{"structure": "Cc1nc2ccccc2c2c1C(=O)NC2=O", "method": "luminescence", "value": "100 µM"}
{"structure": "O=C1NC(=O)c2cc([N+](=O)[O-])c(SCc3ccc(Cl)cc3)cc21", "method": "luminescence", "value": "35 µM"}
{"structure": "COc1cc(/C=C2/N=C(c3ccccc3)N(c3nc(C)cc(=O)[nH]3)C2=O)ccc1O", "method": "RT activity", "value": "54.54 µg/mL"}
{"structure": "O=c1[nH]c(SCc2cn[nH]n2)nc(-c2ccc(I)cc2)c1Cl", "strain or isolate": "ADA5", "value": "0.29 µg/mL"}

ECn is the concentration giving n% inhibition of infection, replication or growth. Rows are shuffled and stem from different studies.